Data as given in PubChem BioAssay AID504761 (Drosophila RNAi Screening Center, 2011).
Assay: 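Fly genes whose silencing reduces dengue virus type 2 infection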 (primary screen). Cell system: D.Mel-2 cells from Drosophila. Reagent: long dsRNA against Drosophila genes. Treatment: infection with dengue virus type 2; dose and infection time not stated. Measured: 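Per well on two replicate plates, imaging gave the percent of cells positive for viral envelope protein, ranked by infection, and a nuclear count of cells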. Scale: infection score: higher = more virus-infected cells; cell count: higher = more cells in the well. Active means: 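Low infection ranks in the two replicates (chance level up to 0.065) followed by a retest with a 1.5-fold or larger significant decrease, p below 0.05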. Meaning of the calls: active = confirmed: knock-down lowers infection; inactive = not picked or not confirmed.
The screen tested about 22,000 reagents; below is an unselected part of those that have a named target and a result. Over the whole deposit, 116 (0.52%) got an active call. 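Calls depend on retest data that are not deposited; infection was ranked per plate without normalising between plates; the unit of the infection score is not given.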 The raw values are shown without normalisation. A number with no mark means an inactive call. A plus sign joins genes that one reagent is predicted to hit. Not given: the amount of reagent, the time to read-out.

gene knocked down	amplicon	infection score, replicate 1	infection score, replicate 2	cell count, replicate 1	cell count, replicate 2
CG13999	DRSC02331	5.22	6.89	1399	2845
CG13999	DRSC29521		7.16	368	5379
Trmt6	DRSC03272	11.2	8.12	5798	6477
pav	DRSC08730	2.1	3.24	3573	3300
pav	DRSC25088	5.9	1.67	4612	4491
mTor	DRSC02811	6.29	4.27	6537	7279
CG32507	DRSC20421	5.43	3.49	6893	6619
RpL35	DRSC18347	3.26	1.18	1656	1605
REPTOR-BP	DRSC02683	2.02	11.1	6644	6792
loopin-1	DRSC06888	10.9	11.3	6396	5983
loopin-1	DRSC24892	4.72	12.8	5890	3743
CG12213	DRSC14478	8.79	6.8	6254	6680
CG12213	DRSC22109	13.1	1.49	6137	7052
CG12213	DRSC25474	14.3	4.74	4602	1203
osi	DRSC02931	3.81	2.98	6412	6575
CG5757	DRSC06951	15.5	17	5519	5195
ovm + CG31975	DRSC22146	2.81	26.6	6685	5450
CG3106	DRSC18279	1.64	3.61	6385	6812
CG3106	DRSC29465	2	19.9	500	5697
CG3036	DRSC00260	2.48	0.89	6365	6946
CG3036	DRSC00562	3.42	7.29	6108	6295
CG3036	DRSC24856	4.5	7.76	5959	6173
Cat	DRSC11110	3.24	2.64	6800	6640
Cat	DRSC24077	9.24	8.17	6059	6024
Rbp4	DRSC16818	1.32	0.74	6223	6641
Rbp4	DRSC27818	11	35.5	6712	5990
CG17698	DRSC11907	14.4	10.8	4468	5843
Ppox	DRSC17033	10.5	10.2	4950	4154
BoYb	DRSC11637	21	3.41	4490	1232
ATPCL	DRSC05913	14.8	21.2	6772	6230
ATPCL	DRSC27809	0.83	33.4	6111	4908
Nedd4	DRSC11234	6.35	2.31	6082	6008
Nedd4	DRSC21548	2.21	2.41	6198	6878
Nedd4	DRSC26365	16.6	21	4226	6349
obst-H	DRSC10935	6.79	3.4	5711	5239
obst-H	DRSC10940	4.86	28.2	5409	5217
CG4998	DRSC10466	1.93	3.02	5903	6249
CG4998	DRSC22911	2.38	5.94	6806	6448
CG12861	DRSC06201	14.4	0.57	5688	522
CG12861	DRSC21960	5.17	8.93	6629	6507
CG12861	DRSC24847	11.6	7.96	5774	5766
Acp53C14a	DRSC07224	9.18	15	6712	6300
CG6023	DRSC19970	2.27	0.99	6776	6046
CG10725	DRSC09788	6.97	5.74	6671	6616
Oatp58Db	DRSC04364	24.8	30.9	5169	6485
Oatp58Db	DRSC24248	12.6	4.77	5747	6273
CG18609	DRSC06775	4.39	1.39	5969	6095
CG18609	DRSC27601	5.25	4.65	6687	6662
holn1	DRSC02827	16.9	4.61	6626	6594
holn1	DRSC22822	3.03	1.15	6231	6884
CG5883	DRSC10552	2.99	1.66	6116	6338
Ir21a	DRSC00528	1.45	11.9	6202	6266
mfas	DRSC16997	14.2	14.1	6226	6338
mfas	DRSC28658	21.1	6.58	3512	957
Ubc4	DRSC11312	7.46	7.58	6369	6228
CG8206	DRSC20093	1.83	1.25	6388	6472
heca	DRSC22990	0.58	7.34	5313	5956
heca	DRSC25796	3.31	0.92	5718	5411

5 consecutive records already listed, for reference:
gene knocked down	amplicon	infection score, replicate 1	infection score, replicate 2	cell count, replicate 1	cell count, replicate 2
loopin-1	DRSC24892	4.72	12.8	5890	3743
CG12213	DRSC14478	8.79	6.8	6254	6680
CG12213	DRSC22109	13.1	1.49	6137	7052
CG12213	DRSC25474	14.3	4.74	4602	1203
osi	DRSC02931	3.81	2.98	6412	6575
